Read-outs that look alike come from different tables or passages of the source.
How the values were obtained:
[1] = tested on: ZM214M.PL15 pseudovirus (clade C); settings: reported by Wu et al. (16); cited from earlier work
[2] = tested on: ZM214M.PL15 pseudovirus (clade C); experiment: HIV-1 neutralization assay (Env-pseudotyped virus, Luc reporter); assay type: cell-based

| Substance | VRC01HEK IC50 [1] | dose reduction index (DRI) in a respective combination with VRC01p ([2]; mean ± SEM) | IC50 ([2]; read-out: IC50 in a respective combination with VRC01p, TZM-b1 cells, GRFT, MVC concentration in combination, mean ± SEM) | IC50 ([2]; read-out: IC50 when used individually, TZM-b1 cells, GRFT, MVC, mean ± SEM) | IC50 ([2]; TZM-b1 cells, GRFT, MVC concentration in combination, mean ± SEM, read-out: IC50 in a respective combination with VRC01p) | IC50 ([2]; TZM-b1 cells, GRFT, MVC, mean ± SEM, read-out: IC50 when used individually) |
| --- | --- | --- | --- | --- | --- | --- |
| VRC01HEK: HEK293F cell-produced bnMAb VRC01 | 0.44 µg/mL | – | – | – | – | – |
| maraviroc [MVC] | – | 3.15 ± 1.04 | 3.79 ± 0.18 nM | 12.1 ± 4 nM | – | – |
| griffithsin [GRFT] | – | 2.35 ± 0.13 | – | – | 0.22 ± 0.11 nM | 1.19 ± 0.59 nM |

— patent US10066238B2, “Methods for producing antibodies” (priority 2013, dated 2018)
